A mixed list of measured activities; the numbers were collected in NIAID ChemDB.

All rows: growth or infection tests; organism: Poliovirus; measure: EC50

Lines come from different laboratories, so protocols vary.

{"SMILES": "CSc1nsc(-c2ccc(OCCOc3ccc(C#N)cc3)cc2)c1C#N", "strain or isolate": "TYPE 1", "cells": "HEP-2/L-929/VERO", "value": ">2 µM"}
{"SMILES": "Cc1cc(CCCCCCCOc2ccc(C(=O)OC(C)(C)C)cc2)on1", "strain or isolate": "TYPE 2", "cells": "HELA-OHIO", "value": "0.4 µg/mL"}
{"SMILES": "Brc1ccc(C2=Cc3cc(Br)ccc3OC2)cc1", "strain or isolate": "IB (TYPE 2)", "cells": "HEP-2", "value": ">10 µM"}
{"SMILES": "CC=NC(=N)c1nc(-c2ccc(OC)cc2)n(COCCO)n1", "strain or isolate": "TYPE 1", "cells": "HeLa", "value": ">200 µg/mL"}
{"SMILES": "Clc1ccc(C2=Cc3cc(Cl)ccc3OC2)cc1", "strain or isolate": "IB (TYPE 2)", "cells": "HEP-2", "value": ">10 µM"}
{"SMILES": "CSc1nsc(-c2ccc(OCc3ccccc3)cc2)c1C#N", "strain or isolate": "TYPE 1", "cells": "HEP-2", "value": ">50 µM"}
{"SMILES": "Cc1c(-c2ccccc2)n(-c2ccccc2)c2ccc(C(C)C)cc2c1=O", "strain or isolate": "TYPE 1/SABIN", "cells": "HeLa S3", "value": "5 µg/mL"}
{"SMILES": "CC=NC(=N)c1nc(-c2ccc(OC)cc2)n(Cc2ccccc2)n1", "strain or isolate": "TYPE 1", "cells": "HeLa", "value": ">10 µg/mL"}
{"SMILES": "CNC(=O)OC(C)c1ccc2c(c1)Sc1ccccc1O2", "strain or isolate": "TYPE 3", "cells": "BSC-1", "value": ">10 µg/mL"}
{"SMILES": "S=c1cc(-c2ccccc2)s[nH]1", "strain or isolate": "Type 1/Brunhilde", "cells": "HEP-2", "value": "0.42 µM"}
{"SMILES": "OCCOCn1c(SCc2ccccn2)nc2cc(Cl)c(Cl)cc21", "strain or isolate": "TYPE 1", "cells": "HEL", "value": ">50 µg/mL"}
{"SMILES": "COc1ccc(-c2snc(SC)c2C#N)cc1", "strain or isolate": "TYPE 1", "cells": "HEP-2", "value": "0.6 µM"}
{"SMILES": "Nc1ccn([C@@H]2OCC(CO)=C2F)c(=O)n1", "value": ">100 µg/mL"}
{"SMILES": "Clc1ccc2c(c1)CC(c1ccccc1)CO2", "strain or isolate": "IA (TYPE 2)", "cells": "HEP-2", "value": "<10 µM"}
{"SMILES": "OC[C@H]1O[C@@H](n2c(SCc3ccccn3)nc3ccccc32)[C@H](O)[C@@H]1O", "strain or isolate": "TYPE 1", "cells": "HEL", "value": ">100 µg/mL"}
{"SMILES": "COc1cc(C(=O)Oc2c(-c3ccc(Cl)cc3)oc3ccccc3c2=O)cc(OC)c1O", "strain or isolate": "TYPE 2", "cells": "HeLa", "value": ">1.56 µM"}
{"SMILES": "c1ccc(-c2cc(SSc3cc(-c4ccccc4)sn3)ns2)cc1", "strain or isolate": "Type 1/Brunhilde", "cells": "HEP-2", "value": "0.35 µM"}
{"SMILES": "CC(=O)c1ccc2c(c1)Sc1ccccc1O2", "strain or isolate": "TYPE 3", "cells": "BSC-1", "value": "<0.4 µg/mL"}
{"SMILES": "S=c1cc(-c2ccccc2)s[nH]1", "strain or isolate": "Type 1/Brunhilde", "cells": "HEP-2", "value": "0.42 µM"}
{"SMILES": "COc1cc(C(=O)Oc2c(-c3ccc(Cl)c(Cl)c3)oc3ccccc3c2=O)cc(OC)c1O", "strain or isolate": "TYPE 2", "cells": "HeLa", "value": ">1.56 µM"}
{"SMILES": "CC(O)c1ccc2c(c1)Cc1ccccc1O2", "strain or isolate": "TYPE 3", "cells": "BSC-1", "value": "0.4–2 µg/mL"}
{"SMILES": "CCOC(=O)c1ccc(OCCCCC(=O)c2ccc(C)s2)cc1", "strain or isolate": "TYPE 3", "cells": "VERO", "value": "1.33 µM"}
{"SMILES": "Cc1ccc(-n2c(-c3ccccc3)c(C)c(=O)c3cc(C(C)C)ccc32)cc1", "strain or isolate": "TYPE 1/SABIN", "cells": "HeLa S3", "value": ">2.5 µg/mL"}
{"SMILES": "Cc1ccc(C(=O)CCCCOc2ccc(C3=NC(C)CO3)cc2)s1", "strain or isolate": "TYPE 2", "cells": "VERO", "value": "2.13 µM"}
{"SMILES": "C=C(N=CC)c1nc(-c2ccc(C)cc2)n([C@@H]2O[C@H](CO)[C@@H](O)[C@H]2O)n1", "strain or isolate": "TYPE 1", "cells": "HeLa", "value": ">40 µg/mL"}
{"SMILES": "Cc1ccc(C(=O)CCCCOc2ccc(C3=N[C@H](C)CO3)cc2)s1", "strain or isolate": "TYPE 2", "cells": "VERO", "value": "0.19 µM"}
{"SMILES": "CC(=O)c1ccc2c(c1)[S@@](=O)c1ccccc1O2", "strain or isolate": "TYPE 3", "cells": "BSC-1", "value": ">10 µg/mL"}
{"SMILES": "COc1nsc(-c2ccccc2)c1C#N", "strain or isolate": "Type 1/Brunhilde", "cells": "HEP-2", "value": "0.5 µM"}
{"SMILES": "CSc1nsc(-c2ccc(OCCCc3ccccc3)cc2)c1C#N", "strain or isolate": "TYPE 1", "cells": "HEP-2/L-929/VERO", "value": "0.12 µM"}
{"SMILES": "CSc1nsc(-c2ccc(OS(=O)(=O)c3ccc(C)cc3)cc2)c1C#N", "strain or isolate": "TYPE 1", "cells": "HEP-2", "value": ">25 µM"}
{"SMILES": "Cc1nsc(C)c1C#N", "strain or isolate": "Type 1/Brunhilde", "cells": "HEP-2", "value": ">1000 µM"}
{"SMILES": "CCOC(=O)c1ccc(OCCOc2ccc(-c3snc(SC)c3C#N)cc2)cc1", "strain or isolate": "TYPE 1", "cells": "HEP-2/L-929/VERO", "value": ">2 µM"}
{"SMILES": "OCCOCn1c(CCc2ccccn2)nc2cc(Cl)c(Cl)cc21", "strain or isolate": "TYPE 1", "cells": "HEL", "value": ">100 µg/mL"}
{"SMILES": "CCC(=O)c1ccc2c(c1)Sc1ccccc1O2", "strain or isolate": "TYPE 3", "cells": "BSC-1", "value": "<0.4 µg/mL"}
{"SMILES": "CC=NC(=N)c1nc(-c2ccccc2)n(C/C=C/c2ccccc2)n1", "strain or isolate": "TYPE 1", "cells": "HeLa", "value": ">10 µg/mL"}
{"SMILES": "CSc1nsc(-c2ccc(OCCc3ccccc3)cc2)c1C#N", "strain or isolate": "TYPE 1", "cells": "HEP-2/L-929/VERO", "value": "0.25 µM"}
{"SMILES": "Cc1ccc(C(=O)CCCCCCOc2ccc(C3=NC(C)CO3)cc2)s1", "strain or isolate": "TYPE 3", "cells": "VERO", "value": "1.81 µM"}
{"SMILES": "CC(=O)c1cccc(Oc2ccccc2)c1", "strain or isolate": "TYPE 3", "cells": "BSC-1", "value": "0.4–2 µg/mL"}
{"SMILES": "CSc1nsc(-c2ccc(OS(=O)(=O)c3ccc(C)cc3)cc2)c1C#N", "strain or isolate": "Type 1/Brunhilde", "cells": "HEP-2", "value": ">25 µM"}
{"SMILES": "Clc1ccc2c(c1)C=C(c1ccc(Br)cc1)CO2", "strain or isolate": "II (TYPE 2)", "cells": "HEP-2", "value": ">10 µM"}
{"SMILES": "COc1ccc(-n2c(-c3ccccc3)c(C)c(=O)c3cc(C(C)C)ccc32)cc1", "strain or isolate": "TYPE 1/SABIN", "cells": "HeLa S3", "value": ">2.5 µg/mL"}
{"SMILES": "CCOC(=O)c1ccc(OCCCCCCCc2cc(C)no2)cc1", "strain or isolate": "TYPE 2", "cells": "HELA-OHIO", "value": "1.2 µg/mL"}
{"SMILES": "CSc1nsc(-c2ccc(Cl)cc2)c1C#N", "strain or isolate": "Type 1/Brunhilde", "cells": "HEP-2", "value": "0.3 µM"}
{"SMILES": "Clc1ccc(C2=Cc3ccccc3OC2)cc1", "strain or isolate": "II (TYPE 2)", "cells": "HEP-2", "value": ">10 µM"}
{"SMILES": "Cc1ccc(C(=O)CCCCOc2ccc(C3=NC(C)(C)CO3)cc2)s1", "strain or isolate": "TYPE 3", "cells": "VERO", "value": "4.93 µM"}
{"SMILES": "OC[C@H]1O[C@@H](n2c(CCc3ccccn3)nc3ccccc32)[C@H](O)[C@@H]1O", "strain or isolate": "TYPE 1", "cells": "HEL", "value": ">100 µg/mL"}
{"SMILES": "N#Cc1csnc1-c1ccccc1", "strain or isolate": "Type 1/Brunhilde", "cells": "HEP-2", "value": ">100 µM"}
{"SMILES": "CC(=O)Oc1ccc(/C=C/C(=O)Oc2c(-c3ccc(Cl)cc3)oc3ccccc3c2=O)cc1OC(C)=O", "strain or isolate": "TYPE 2", "cells": "HeLa", "value": ">0.39 µM"}
{"SMILES": "CC=NC(=N)c1nc(-c2cccc(C)c2)n(Cc2ccccc2)n1", "strain or isolate": "TYPE 1", "cells": "HeLa", "value": ">10 µg/mL"}

The last 7 rows once more:

SMILES | strain or isolate | cells | value
CSc1nsc(-c2ccc(Cl)cc2)c1C#N | Type 1/Brunhilde | HEP-2 | 0.3 µM
Clc1ccc(C2=Cc3ccccc3OC2)cc1 | II (TYPE 2) | HEP-2 | >10 µM
Cc1ccc(C(=O)CCCCOc2ccc(C3=NC(C)(C)CO3)cc2)s1 | TYPE 3 | VERO | 4.93 µM
OC[C@H]1O[C@@H](n2c(CCc3ccccn3)nc3ccccc32)[C@H](O)[C@@H]1O | TYPE 1 | HEL | >100 µg/mL
N#Cc1csnc1-c1ccccc1 | Type 1/Brunhilde | HEP-2 | >100 µM
CC(=O)Oc1ccc(/C=C/C(=O)Oc2c(-c3ccc(Cl)cc3)oc3ccccc3c2=O)cc1OC(C)=O | TYPE 2 | HeLa | >0.39 µM
CC=NC(=N)c1nc(-c2cccc(C)c2)n(Cc2ccccc2)n1 | TYPE 1 | HeLa | >10 µg/mL

a–b is a range or a potency band. ECn: concentration that inhibits the pathogen or its effect by n%.